In this data set the test system is NC(=O)CC[C@H](N)C(=O)O. As to the kind of experiment: purified protein. Particulars: Fe2+, alpha-ketoglutarate, O2; C4 hydroxylation.

As for Q4Ox (Fusarium graminearum PH-1), the Km is 990 ± 30 µM and the kcat amounted to 4.17 ± 0.0433 s⁻¹.

The values above are taken from paper PMC8346205.
